Measured values from several laboratories, pooled; numbers as filed in NIAID ChemDB.

Shared fields: tests in culture; agent: HIV-1; method: antigen; read-out: EC50

ECn: concentration that inhibits the pathogen or its effect by n%.

smiles,mutations,cell line,conditions,strain or isolate,value
Nc1ncn([C@H]2C[C@H](O)[C@@H](CO)O2)c(=O)n1,,CEM,,I-232,<0.1 µM
CC(C)(C)NC(=O)[C@@H]1C[C@@H]2CCCC[C@@H]2CN1C[C@@H](O)[C@H](Cc1ccccc1)NC(=O)O[C@H]1CO[C@H]2OCC[C@H]21,,MT-4,,IIIB,<0.046 µM
COC(=O)[C@H](C)NP(=O)(OC[C@@H]1C=C[C@H](n2cc(C)c(=O)[nH]c2=O)O1)Oc1ccccc1,,MM + M/M,,BaL,0.008 µM
CC(C)(C)NC(=O)[C@@H]1CCCN1C(=O)[C@@H](O)[C@H](Cc1ccccc1)NC(=O)[C@H](CC(N)=O)NC(=O)c1ccc2ccccc2n1,,CEM,,IIIB,0.2 µM
O=C(OC[C@@H]1CC[C@H](n2ccc(=O)[nH]c2=O)O1)C(=O)N1CCCC1C(=O)N[C@H](Cc1ccccc1)C(=O)OCc1ccccc1,,MT-4,,IIIB,>160 µM
COc1cc(O)c2c(c1)C(=O)c1c(cc3c(c1O)-c1c(cc(C)c(C(=O)NC(C)C(=O)O)c1O)[C@H](OC1OC(C)C(N)C(O)C1O)[C@H]3O)C2=O,,MT-4,,IIIB,>30 µg/mL
Cc1ccc(-c2ccc3c(c2)C=C(C(=O)Nc2ccc(C[N+](C)(C)C4CCOCC4)cc2)CCC3)cc1,,PBMC,,BAL R5,>1 µg/mL
CCc1cc(NCc2nc3c(Cl)ccc(Cl)c3o2)c(=O)[nH]c1C,RT-P236L,MT-4,,MFE30(RT-P236L),<0.01 µM
Cc1cn([C@H]2C[C@H](N=[N+]=[N-])[C@@H](CO)O2)c(=O)[nH]c1=O,,MM + M/M,,BaL,0.005 µM
Cc1cn([C@H]2C[C@H](N=[N+]=[N-])[C@@H](CO)O2)c(=O)[nH]c1=O,,MT-2,14 d,TM,4 µM
CN=C1CN=C(c2ccc[nH]2)c2cc(Cl)ccc2N1,,H9,,IIIB,2 µM
COC(=O)[C@H](C)NP(=O)(OC[C@@H]1CC[C@H](n2ccc(N)nc2=O)O1)Oc1ccccc1,,MM + M/M,,BaL,0.09 µM
C1CNCCNCCCN(CCCN2CCCNCCNCCCNCC2)CCNC1,,HuT-78 + HUT 78,,IIIB,0.99 µM
CC(C)(C)OC(=O)[C@@H]1CCCN1C(=O)[C@@H](O)[C@H](Cc1ccccc1)NC(=O)[C@H](CC(N)=O)NC(=O)c1ccc2ccccc2n1,,CEM,,IIIB,0.2 µM
Nc1ncnc2c1ncn2[C@H]1CC[C@@H](CO)O1,,MT-4,,IIIB,10 µM
COc1cc(O)c2c(c1)C(=O)c1c(cc3c(c1O)-c1c(cc(C)c(C(=O)N[C@H](C)C(=O)O)c1O)[C@H](O[C@@H]1O[C@H](C)[C@H](O)[C@H](O[C@@H]4OC[C@@H](OS(=O)(=O)O)[C@H](O)[C@H]4O)[C@H]1O)[C@H]3O)C2=O,,MT-4,,IIIB,~30 µg/mL
Cc1cn([C@@H]2OC3(COP4(=O)OCc5ccccc5O4)CO[C@@H]2C3)c(=O)[nH]c1=O,,MT-4,,IIIB,>300 µM
COC(=O)[C@H]1[C@@H]2C[C@@H](O[C@@H]3O[C@H](C)[C@@H](O)[C@H](N)[C@@H]3O)/C=C/C=C/C=C/C=C/C=C/C=C/C=C/[C@H](C)[C@@H](O)[C@H](C)[C@H](C)OC(=O)C[C@H](O)C[C@H](O)[C@@H](O)CC[C@H](O)C[C@H](O)C[C@](O)(C[C@@H]1O)O2,,H9,,IIIB,<5 µg/mL
O=c1[nH]cnc2c1ncn2[C@H]1CC[C@@H](CO)O1,,MT-4,,IIIB,14 µM
COC(=O)[C@@H](C)NC(=O)c1c(C)cc2c(c1O)-c1c(cc3c(c1O)C(=O)c1cc(OC)cc(O)c1C3=O)[C@H](O)[C@H]2O[C@@H]1O[C@H](C)[C@H](N)[C@H](O[C@@H]2OC[C@@H](O)[C@H](O)[C@H]2O)[C@H]1O,,MT-4,,IIIB,>30 µg/mL
Cc1cn([C@H]2C[C@H](N=[N+]=[N-])[C@@H](COP(=O)(OCC(Cl)(Cl)Cl)OCC(Cl)(Cl)Cl)O2)c(=O)[nH]c1=O,,C8166,,RF,0.7 µM
CC(C)(C)OC(=O)N[C@@H](Cc1ccccc1)[C@@H](O)C[C@@H](Cc1ccc(OCCN2CCOCC2)cc1)C(=O)N[C@H]1c2ccccc2C[C@H]1O,,PBL,,IIIB,<0.00078 µM
Nc1ncnc2c1ncn2CCOCP(=O)(O)O,,MT-4,,,1.6 µM
CCCCCCCCCCCCCCCCCC(=O)N[C@@H](CO[C@@H]1O[C@H](CO)C(O)[C@H](O)[C@H]1NC(C)=O)C(=O)NCCCCCCCCCCCCCC,,MT-4,,,>100 µM
C1CNCCNCCCN[C@H]([C@@H]2CNCCCNCCNCCCN2)CNC1,,CEM,,IIIB,0.72 µM
[NH4+],,MT-4,,IIIB,>100 µg/mL
Cc1cn([C@@H]2OC3(COP4(=O)OCc5ccccc5O4)CO[C@@H]2[C@@H]3N=[N+]=[N-])c(=O)[nH]c1=O,,MT-4,,IIIB,>300 µM
Cc1c(Sc2ccccc2)n(COCCO)c(=O)[nH]c1=O,,HuT-78 + HUT 78,,IIIB,5.2 µM
CC(C)(C)NC(=O)[C@@H]1CCCN1C(=O)[C@@H](O)[C@H](Cc1ccccc1)NC(=O)[C@H](CC(N)=O)NC(=O)c1cc2ccccc2[nH]1,,CEM,,IIIB,0.8 µM
Cc1cn([C@H]2C[C@H](F)[C@@H](CO)O2)c(=O)[nH]c1=O,RT-M41L M43E E44D/A D67N V118I M184V L210W T215Y K219N,PBMC,,RS NRTI-MDR (RT M41L M43E E44A D67N V118I M184V L210W T215Y K219N),0.0083 µM
Nc1ncnc2c1ncn2CCOCP(=O)(O)O,,H9,,IIIB,0.4 µM
CC(C)=CCN1Cc2cccc3[nH]c(=S)n(c23)C[C@@H]1C,,H9,,MN,0.201 µM
O=c1[nH]c(=O)n([C@H]2C[C@H](F)[C@@H](CO)O2)cc1Cl,,HuT-78 + HUT 78,,IIIB,1.4 µM
CO[C@H]1O[C@@H](n2ccc(=O)[nH]c2=O)C[C@@H]1N=[N+]=[N-],,MT-4,,IIIB,>160 µM
Cc1ccnc2c1NC(=O)c1cccnc1N2C1CC1,Y181C,C8166,,NL4-3,4.896 µM
O=C(OC[C@@H]1CC[C@H](n2cnc3c(=O)[nH]cnc32)O1)C(=O)N1CCCC1C(=O)N[C@H](Cc1ccccc1)C(=O)OCc1ccccc1,,MT-4,,IIIB,15 µM
O=C1CN=C(c2ccc[nH]2)c2cc(Cl)ccc2N1,,MT-4,,IIIB/LAI,>9 µM
CO[C@@H]1[C@@H](OC(=O)c2ccc(C)[nH]2)[C@@H](O)C(Oc2ccc3c(O)c(NC(=O)c4c[nH]c(C(=O)Nc5c(O)c6ccc(OC7OC(C)(C)[C@H](OC)[C@@H](OC(=O)c8ccc(C)[nH]8)[C@H]7O)c(C)c6oc5=O)c4C)c(=O)oc3c2C)OC1(C)C,,HuT-78 + HUT 78,,,0.31 µg/mL
Cc1cn([C@H]2C[C@H](N=[N+]=[N-])[C@@H](COC(=O)C(=O)N3CCCC3C(=O)N[C@H](Cc3ccccc3)C(=O)OCc3ccccc3)O2)c(=O)[nH]c1=O,,MT-4,,IIIB,0.016 µM
Cc1cn([C@H]2C[C@H](N=[N+]=[N-])[C@@H](CO)O2)c(=O)[nH]c1=O,,CEM,,,~0.0001 µg/mL
Nc1ccn([C@@H]2O[C@H](CO)C[C@@H]2F)c(=O)n1,,H9,,IIIB,~1 µM
Cc1cn([C@H]2C[C@H](N=[N+]=[N-])[C@@H](CO)O2)c(=O)[nH]c1=O,,C8166,,IIIB,<0.08 µg/mL
O=c1[nH]c(=O)n([C@H]2C[C@H](F)[C@@H](CO)O2)cc1I,,HuT-78 + HUT 78,,IIIB,4.4 µM
CCn1cc(C(=O)O)c(=O)c2cc3c(cc21)OCO3,,HuT-78 + HUT 78,,,>177 µg/mL
C=C1CC[C@@H]2[C@](C)(CO)[C@H](O)CC[C@@]2(C)[C@@H]1C/C=C1/C(=O)OC[C@H]1O,,H9,,IIIB,>50 µg/mL
Nc1ncnc2c1ncn2[C@@H]1O[C@@]2(CO)CO[C@@H]1C2,,MT-4,,IIIB,>300 µM

The first 7 rows once more:

smiles,mutations,cell line,conditions,strain or isolate,value
Nc1ncn([C@H]2C[C@H](O)[C@@H](CO)O2)c(=O)n1,,CEM,,I-232,<0.1 µM
CC(C)(C)NC(=O)[C@@H]1C[C@@H]2CCCC[C@@H]2CN1C[C@@H](O)[C@H](Cc1ccccc1)NC(=O)O[C@H]1CO[C@H]2OCC[C@H]21,,MT-4,,IIIB,<0.046 µM
COC(=O)[C@H](C)NP(=O)(OC[C@@H]1C=C[C@H](n2cc(C)c(=O)[nH]c2=O)O1)Oc1ccccc1,,MM + M/M,,BaL,0.008 µM
CC(C)(C)NC(=O)[C@@H]1CCCN1C(=O)[C@@H](O)[C@H](Cc1ccccc1)NC(=O)[C@H](CC(N)=O)NC(=O)c1ccc2ccccc2n1,,CEM,,IIIB,0.2 µM
O=C(OC[C@@H]1CC[C@H](n2ccc(=O)[nH]c2=O)O1)C(=O)N1CCCC1C(=O)N[C@H](Cc1ccccc1)C(=O)OCc1ccccc1,,MT-4,,IIIB,>160 µM
COc1cc(O)c2c(c1)C(=O)c1c(cc3c(c1O)-c1c(cc(C)c(C(=O)NC(C)C(=O)O)c1O)[C@H](OC1OC(C)C(N)C(O)C1O)[C@H]3O)C2=O,,MT-4,,IIIB,>30 µg/mL
Cc1ccc(-c2ccc3c(c2)C=C(C(=O)Nc2ccc(C[N+](C)(C)C4CCOCC4)cc2)CCC3)cc1,,PBMC,,BAL R5,>1 µg/mL

Conditions beyond the fields shown may differ between rows. An empty or dashed field is not shown.